Data on two compounds can be found in ChEMBL document CHEMBL1275243 (2010).

Molecules are shown by their SMILES.

In assay [1] the test system is Bacillus anthracis. In words: Antimicrobial activity against Bacillus anthracis 240 assessed as change in fluorescence threshold cycle at. 03 ug/ml after 4 hrs by real-time PCR viability assay relative to control.
Assay [2] has as its system Bacillus anthracis. The experiment in a line: Antimicrobial activity against Bacillus anthracis A0149 assessed as change in fluorescence threshold cycle at. 03 ug/ml after 4 hrs by real-time PCR viability assay relative to control. (In general: Quantitative PCR measures a nucleic acid by following its amplification.)
In assay [3] the test system is Bacillus anthracis. The experiment in a line: Antimicrobial activity against Bacillus anthracis A0193 assessed as change in fluorescence threshold cycle at. 03 ug/ml after 4 hrs by real-time PCR viability assay relative to control.
Assay [4] relates to Bacillus anthracis. In words: Antimicrobial activity against Bacillus anthracis A0419 assessed as change in fluorescence threshold cycle at. 03 ug/ml after 4 hrs by real-time PCR viability assay relative to control.
Assay [5] has as its system Bacillus anthracis. The experiment in a line: Antimicrobial activity against Bacillus anthracis A0188 assessed as change in fluorescence threshold cycle at. 03 ug/ml after 4 hrs by real-time PCR viability assay relative to control.
Assay [6] relates to Bacillus anthracis. In words: Antimicrobial activity against Bacillus anthracis A0465 assessed as change in fluorescence threshold cycle at. 03 ug/ml after 4 hrs by real-time PCR viability assay relative to control.
In assay [7] the test system is Bacillus anthracis. The experiment in a line: Antimicrobial activity against Bacillus anthracis A03768 assessed as change in fluorescence threshold cycle at. 03 ug/ml after 4 hrs by real-time PCR viability assay relative to control.
Assay [8] concerns Bacillus anthracis. The experiment in a line: Antimicrobial activity against Bacillus anthracis A0465 assessed as change in fluorescence threshold cycle at 0.015 ug/ml after 4 hrs by real-time PCR viability assay relative to control.
In assay [9] the test system is Bacillus anthracis. In words: Antimicrobial activity against Bacillus anthracis A0488 assessed as change in fluorescence threshold cycle at 0.015 ug/ml after 4 hrs by real-time PCR viability assay relative to control.
Assay [10] has as its system Bacillus anthracis. In words: Antimicrobial activity against Bacillus anthracis A0188 assessed as change in fluorescence threshold cycle at 0.015 ug/ml after 4 hrs by real-time PCR viability assay relative to control.
In assay [11] the test system is Bacillus anthracis. In words: Antimicrobial activity against Bacillus anthracis A0264 assessed as change in fluorescence threshold cycle at 0.015 ug/ml after 4 hrs by real-time PCR viability assay relative to control.
In assay [12] the test system is Bacillus anthracis. The experiment in a line: Antimicrobial activity against Bacillus anthracis A0149 assessed as change in fluorescence threshold cycle at 0.015 ug/ml after 4 hrs by real-time PCR viability assay relative to control.
The subject of assay [13] is Bacillus anthracis. In words: Antimicrobial activity against Bacillus anthracis A03768 assessed as change in fluorescence threshold cycle at 0.015 ug/ml after 4 hrs by real-time PCR viability assay relative to control.
The subject of assay [14] is Bacillus anthracis. In words: Antimicrobial activity against pXO1-positive and pXO2 negative Bacillus anthracis 34F2 assessed as change in fluorescence threshold cycle at 0.015 ug/ml after 4 hrs by real-time PCR viability assay relative to control.
The test system of assay [15] is Bacillus anthracis. The experiment in a line: Antimicrobial activity against Bacillus anthracis 240 assessed as change in fluorescence threshold cycle at 64 ug/ml after 4 hrs by real-time PCR viability assay relative to control.
In assay [16] the test system is Bacillus anthracis. The experiment in a line: Antimicrobial activity against Bacillus anthracis A0188 assessed as change in fluorescence threshold cycle at 8 ug/ml after 4 hrs by real-time PCR viability assay relative to control.
The subject of assay [17] is Bacillus anthracis. In words: Antimicrobial activity against Bacillus anthracis A0102 assessed as change in fluorescence threshold cycle at 4 ug/ml after 4 hrs by real-time PCR viability assay relative to control.
The test system of assay [18] is Bacillus anthracis. In words: Antimicrobial activity against Bacillus anthracis A0264 assessed as change in fluorescence threshold cycle at 32 ug/ml after 4 hrs by real-time PCR viability assay relative to control.
Assay [19] has as its system Bacillus anthracis. The experiment in a line: Antimicrobial activity against Bacillus anthracis A0419 assessed as change in fluorescence threshold cycle at 32 ug/ml after 4 hrs by real-time PCR viability assay relative to control.
Assay [20] has as its system Bacillus anthracis. In words: Antimicrobial activity against Bacillus anthracis A0462 assessed as change in fluorescence threshold cycle at 32 ug/ml after 4 hrs by real-time PCR viability assay relative to control.
In assay [21] the test system is Bacillus anthracis. The experiment in a line: Antimicrobial activity against Bacillus anthracis A0248 assessed as change in fluorescence threshold cycle at 32 ug/ml after 4 hrs by real-time PCR viability assay relative to control.
Assay [22] relates to Bacillus anthracis. In words: Antimicrobial activity against Bacillus anthracis A0488 assessed as change in fluorescence threshold cycle at 32 ug/ml after 4 hrs by real-time PCR viability assay relative to control.
The test system of assay [23] is Bacillus anthracis. In words: Antimicrobial activity against Bacillus anthracis A0102 assessed as change in fluorescence threshold cycle at 32 ug/ml after 4 hrs by real-time PCR viability assay relative to control.
Assay [24] has as its system Bacillus anthracis. The experiment in a line: Antimicrobial activity against Bacillus anthracis A0293 assessed as change in fluorescence threshold cycle at 64 ug/ml after 4 hrs by real-time PCR viability assay relative to control.
In assay [25] the test system is Bacillus anthracis. The experiment in a line: Antimicrobial activity against Bacillus anthracis A0149 assessed as change in fluorescence threshold cycle at 64 ug/ml after 4 hrs by real-time PCR viability assay relative to control.
Assay [26] deals with Bacillus anthracis. In words: Antimicrobial activity against Bacillus anthracis A0188 assessed as change in fluorescence threshold cycle at 64 ug/ml after 4 hrs by real-time PCR viability assay relative to control.
Assay [27] has as its system Bacillus anthracis. The experiment in a line: Antimicrobial activity against Bacillus anthracis A0488 assessed as change in fluorescence threshold cycle at 64 ug/ml after 4 hrs by real-time PCR viability assay relative to control.
The subject of assay [28] is Bacillus anthracis. In words: Antimicrobial activity against Bacillus anthracis A0102 assessed as change in fluorescence threshold cycle at 64 ug/ml after 4 hrs by real-time PCR viability assay relative to control.

On to `O=C(O)c1cn(C2CC2)c2cc(N3CCNCC3)c(F)cc2c1=O` [CIPROFLOXACIN], for which the deltaCT was 7.98 in the assay on Bacillus anthracis [1]; 8.01 in the assay with Bacillus anthracis [2]; 8.71 with Bacillus anthracis [3]; 2.3 in the assay with Bacillus anthracis [4]; 5.34 in the assay on Bacillus anthracis [5]; 9.23 in the assay on Bacillus anthracis [6]. In addition, the deltaCT is 7.83 in the assay with Bacillus anthracis [7]; 0.54 with Bacillus anthracis [8]; 7.6 in the assay with Bacillus anthracis [9]; 8.62 in the assay on Bacillus anthracis [10]; 8.93 in the assay with Bacillus anthracis [11]; 7.69 in the assay with Bacillus anthracis [12]. Besides, the deltaCT stood at 8.82 with Bacillus anthracis [13] and 0.61 in the assay on Bacillus anthracis [14].
As for `C[C@H]1c2cccc(O)c2C(=O)C2=C(O)[C@]3(O)C(=O)C(C(N)=O)=C(O)[C@@H](N(C)C)[C@@H]3[C@@H](O)[C@@H]21.O` [DOXYCYCLINE], the deltaCT was 7.23 with Bacillus anthracis [15]; 8.12 with Bacillus anthracis [16]; 9.46 in the assay on Bacillus anthracis [17]; 7.54 with Bacillus anthracis [18]; 7.61 in the assay with Bacillus anthracis [19]; 5.91 in the assay on Bacillus anthracis [20]. Also, the deltaCT with Bacillus anthracis [21] is 6.16; in the assay with Bacillus anthracis [22] it was 6.67; in the assay with Bacillus anthracis [23] it was 6.47; in the assay with Bacillus anthracis [24], 8.51; with Bacillus anthracis [25], 8.6; in the assay with Bacillus anthracis [26] it was 8.09. In addition, the figures for the deltaCT in the assay with Bacillus anthracis [27] and in the assay on Bacillus anthracis [28] were 8.13 and 7, respectively.
